Literature values as cited in patent US12138267B2, “Methods of treating respiratory depression modulated by a non-opioid agent” (Enalare Therapeutics Inc., priority 2021, dated 2024).

Tested on: healthy participants
Conditions: high dose (1.1 mg/kg/h), Roozekrans et al., 2014; cited from earlier work

SMILES: CCCNc1nc(NCCC)nc(N(C)OC)n1 [Compound A]
- Alfentanil-induced ventilatory suppression: significantly attenuated
